{
  "source": "patent US20230143470A1",
  "about": "(THE SCRIPPS RESEARCH INSTITUTE, priority 2020, published 2023)",
  "assay": "general procedure: Fmoc solid-phase peptide synthesis; 2-chlorotrityl chloride resin; HBTU, HObt and DIPEA (lactam cyclization)",
  "details": "conjugation step",
  "data": [
    {"substance": "P7-TAMRA probe", "values": [
      {"measurement": "conjugation yield", "result": 95, "unit": "% yield"}
    ]}
  ]
}
